Results: patent publication US20250332276A1, “Inhibitors of Molluscum Contagiosum Infection and Methods Using the Same” (priority 2022, published 2025)

system: mD4-VV surrogate virus; assay: microbe, parasite or virus in culture; assay type: cell-based, vaccinia virus (VV); conditions: Orthopoxvirus vaccinia, read-out: EC50 (μM), antiviral mD4/VV activity

Q: For `CCC(C(=O)Nc1sc(C(N)=O)c(C)c1C(=O)NCCNC(=O)OC(C)(C)C)c1ccc(F)cc1` (centres unmarked) [Compound 32, tert-butyl (2-(5-carbamoyl-2-(2-(4-fluorophenyl)butanamido)-4-methylthiophene-3-carboxamido)ethyl)carbamate], which EC50 is on record?
A: 29.5 µM

Q: With `CCC(C(=O)Nc1sc(C(N)=O)c(C)c1C(=O)NCCNC(=O)[C@@H](NC(=O)[C@@H](NC(=O)[C@@H](NC(=O)OC(C)(C)C)C(C)C)C(C)C)C(C)C)c1ccc(F)cc1` (stereo partly drawn) [Compound 40, tert-butyl ((7S,10S,13S)-1-(5-carbamoyl-2-(2-(4-fluorophenyl)butanamido)-4-methylthiophen-3-yl)-7,10-diisopropyl-14-methyl-1,6,9,12-tetraoxo-2,5,8,11-tetraazapentadecan-13-yl)carbamate] as the compound, how does the EC50 read?
A: 38.9 µM

Q: With `CCC(C(=O)Nc1sc(C(=O)NCCCN)c(C)c1C(=O)OC)c1ccc(F)cc1` (centres unmarked) [Compound 42, methyl 5-((3-aminopropyl)carbamoyl)-2-(2-(4-fluorophenyl)butanamido)-4-methylthiophene-3-carboxylate] as the compound, how does the EC50 read?
A: 20 µM

Q: How did the EC50 turn out when `CCC(C(=O)Nc1sc(C(=O)NCCOCCNC(=O)OC(C)(C)C)c(C)c1C(=O)OC)c1ccc(F)cc1` (centres unmarked) [Compound 43, methyl 5-((2-(2-((tert-butoxycarbonyl)amino)ethoxy)ethyl)carbamoyl)-2-(2-(4-fluorophenyl)butanamido)-4-methylthiophene-3-carboxylate] was run?
A: 29.9 µM

Q: With `CCC(C(=O)Nc1sc(C(=O)NCCNC(=O)[C@H](C)NC(=O)[C@@H](NC(=O)OC(C)(C)C)C(C)C)c(C)c1C(=O)OC)c1ccc(F)cc1` (stereo partly drawn) [Compound 44, methyl 2-(2-(4-fluorophenyl)butanamido)-5-(((6S,9S)-6-isopropyl-2,2,9-trimethyl-4,7,10-trioxo-3-oxa-5,8,11-triazatridecan-13-yl)carbamoyl)-4-methylthiophene-3-carboxylate] as the compound, how does the EC50 read?
A: 35.9 µM

Q: How did the EC50 turn out when `CCC(C(=O)Nc1sc(C(=O)NCCNC(=O)[C@H](C)NC(=O)[C@@H](N)C(C)C)c(C)c1C(=O)OC)c1ccc(F)cc1` (stereo partly drawn) [Compound 45, methyl 5-((2-((S)-2-((S)-2-amino-3-methylbutanamido)propanamido)ethyl)carbamoyl)-2-(2-(4-fluorophenyl)butanamido)-4-methylthiophene-3-carboxylate] was run?
A: 33 µM

Q: How did the EC50 turn out when `CCC(C(=O)Nc1sc(C(=O)NCCCNC(=O)[C@@H](NC(=O)[C@@H](N)C(C)C)C(C)C)c(C)c1C(=O)OC)c1ccc(F)cc1` (stereo partly drawn) [Compound 48, methyl 5-((3-((S)-2-((S)-2-amino-3-methylbutanamido)-3-methylbutanamido)propyl)carbamoyl)-2-(2-(4-fluorophenyl)butanamido)-4-methylthiophene-3-carboxylate] was run?
A: 20.5 µM

Q: How did the EC50 turn out when `CCC(C(=O)Nc1sc(C(=O)NCCOCCNC(=O)[C@@H](NC(=O)[C@@H](N)C(C)C)C(C)C)c(C)c1C(=O)OC)c1ccc(F)cc1` (stereo partly drawn) [Compound 49, methyl 5-((2-(2-((S)-2-((S)-2-amino-3-methylbutanamido)-3-methylbutanamido)ethoxy)ethyl)carbamoyl)-2-(2-(4-fluorophenyl)butanamido)-4-methylthiophene-3-carboxylate] was run?
A: 33.4 µM

Q: With `CCC(C(=O)Nc1sc(C(N)=O)c(C)c1C(=O)OC)c1ccc(C#N)cc1` (centres unmarked) [Compound 54, methyl 5-carbamoyl-2-(2-(4-cyanophenyl)butanamido)-4-methylthiophene-3-carboxylate] as the compound, how does the EC50 read?
A: 42 µM

Q: For `CCC(C(=O)Nc1sc(C(=O)NCCN)c(C)c1C(=O)OC)c1ccc2c(c1)OCO2` (centres unmarked) [Compound 55, methyl 5-((2-aminoethyl)carbamoyl)-2-(2-(benzo[d][1,3]dioxol-5-yl)butanamido)-4-methylthiophene-3-carboxylate], which EC50 is on record?
A: 12.3 µM

Q: For `CCC(C(=O)Nc1sc(C(=O)NCCNC(=O)[C@@H](NC(=O)[C@@H](NC(=O)[C@@H](N)C(C)C)C(C)C)C(C)C)c(C)c1C(=O)OC)c1ccc2c(c1)OCO2` (stereo partly drawn) [Compound 57, methyl 5-((2-((S)-2-((S)-2-((S)-2-amino-3-methylbutanamido)-3-methylbutanamido)-3-methylbutanamido)ethyl)carbamoyl)-2-(2-(benzo[d][1,3]dioxol-5-yl)butanamido)-4-methylthiophene-3-carboxylate], which EC50 is on record?
A: ~25 µM

Q: How did the EC50 turn out when `CCC(C(=O)Nc1sc(C(=O)NCCN)c(C)c1C(=O)OC)c1cc(F)cc(F)c1` (centres unmarked) [Compound 58, methyl 5-((2-aminoethyl)carbamoyl)-2-(2-(3,5-difluorophenyl)butanamido)-4-methylthiophene-3-carboxylate] was run?
A: 8.7 µM

Q: For `CCC(C(=O)Nc1sc(C(=O)NCCNC(=O)[C@@H](NC(=O)[C@@H](NC(=O)[C@@H](N)C(C)C)C(C)C)C(C)C)c(C)c1C(=O)OC)c1cc(F)cc(F)c1` (stereo partly drawn) [Compound 60, methyl 5-((2-((S)-2-((S)-2-((S)-2-amino-3-methylbutanamido)-3-methylbutanamido)-3-methylbutanamido)ethyl)carbamoyl)-2-(2-(3,5-difluorophenyl)butanamido)-4-methylthiophene-3-carboxylate], which EC50 is on record?
A: 3.5 µM

Q: `CCC(C(=O)Nc1sc(C(=O)NCCN)c(C)c1C(=O)OC)c1ccc(C#N)cc1` (centres unmarked) [Compound 61, methyl 5-((2-aminoethyl)carbamoyl)-2-(2-(4-cyanophenyl)butanamido)-4-methylthiophene-3-carboxylate] was tested. Which EC50 did it give?
A: 36.1 µM

Q: `CCC(C(=O)Nc1sc(C(N)=O)c(C)c1C(=O)OC)c1ccc(F)c(F)c1` (centres unmarked) [Compound 69, methyl 5-carbamoyl-2-(2-(3,4-difluorophenyl)butanamido)-4-methylthiophene-3-carboxylate] was tested. Which EC50 did it give?
A: 4 µM

Q: How did the EC50 turn out when `CCC(C(=O)Nc1sc(C(N)=O)c(C)c1C(=O)OC)c1cccc(C)c1` (centres unmarked) [Compound 70, methyl 5-carbamoyl-4-methyl-2-(2-(m-tolyl)butanamido)thiophene-3-carboxylate] was run?
A: 6 µM

Q: With `CCC(C(=O)Nc1sc(C(N)=O)c(C)c1C(=O)OC)c1cccc(C(F)(F)F)c1` (centres unmarked) [Compound 71, methyl 5-carbamoyl-4-methyl-2-(2-(3-(trifluoromethyl)phenyl)butanamido)thiophene-3-carboxylate] as the compound, how does the EC50 read?
A: 4.1 µM

Q: With `CCC(C(=O)Nc1sc(C(=O)NCCN)c(C)c1C(=O)OC)c1ccc(F)c(F)c1` (centres unmarked) [Compound 72, methyl 5-((2-aminoethyl)carbamoyl)-2-(2-(3,4-difluorophenyl)butanamido)-4-methylthiophene-3-carboxylate] as the compound, how does the EC50 read?
A: 7.8 µM

Q: With `CCC(C(=O)Nc1sc(C(=O)NCCNC(=O)[C@@H](NC(=O)[C@@H](NC(=O)[C@@H](N)C(C)C)C(C)C)C(C)C)c(C)c1C(=O)OC)c1ccc(F)c(F)c1` (stereo partly drawn) [Compound 74, methyl 5-((2-((S)-2-((S)-2-((S)-2-amino-3-methylbutanamido)-3-methylbutanamido)-3-methylbutanamido)ethyl)carbamoyl)-2-(2-(3,4-difluorophenyl)butanamido)-4-methylthiophene-3-carboxylate] as the compound, how does the EC50 read?
A: 1.1 µM

Q: Which EC50 does the source give for `CCC(C(=O)Nc1sc(C(=O)NCCN)c(C)c1C(=O)OC)c1cccc(C)c1` (centres unmarked) [Compound 75, methyl 5-((2-aminoethyl)carbamoyl)-4-methyl-2-(2-(m-tolyl)butanamido)thiophene-3-carboxylate] here?
A: 2.5 µM

Q: How did the EC50 turn out when `CCC(C(=O)Nc1sc(C(=O)NCCNC(=O)[C@@H](NC(=O)[C@@H](NC(=O)[C@@H](N)C(C)C)C(C)C)C(C)C)c(C)c1C(=O)OC)c1cccc(C)c1` (stereo partly drawn) [Compound 77, methyl 5-((2-((S)-2-((S)-2-((S)-2-amino-3-methylbutanamido)-3-methylbutanamido)-3-methylbutanamido)ethyl)carbamoyl)-4-methyl-2-(2-(m-tolyl)butanamido)thiophene-3-carboxylate] was run?
A: 9.1 µM

Q: `CCC(C(=O)Nc1sc(C(=O)NCCN)c(C)c1C(=O)OC)c1cccc(C(F)(F)F)c1` (centres unmarked) [Compound 78, methyl 5-((2-aminoethyl)carbamoyl)-4-methyl-2-(2-(3-(trifluoromethyl)phenyl)butanamido)thiophene-3-carboxylate] was tested. Which EC50 did it give?
A: 2.5 µM

Q: With `CCC(C(=O)Nc1sc(C(N)=O)c(C)c1C(=O)OC)c1ccccc1C` (centres unmarked) [Compound 84, methyl 5-carbamoyl-4-methyl-2-(2-(o-tolyl)butanamido)thiophene-3-carboxylate] as the compound, how does the EC50 read?
A: 26.2 µM

Q: With `CCC(C(=O)Nc1sc(C(=O)NCCN)c(C)c1C(=O)OC)c1ccccc1C` (centres unmarked) [Compound 85, methyl 5-((2-aminoethyl)carbamoyl)-4-methyl-2-(2-(o-tolyl)butanamido)thiophene-3-carboxylate] as the compound, how does the EC50 read?
A: 20.5 µM

Q: With `CCC(C(=O)Nc1sc(C(=O)NCCNC(=O)[C@@H](NC(=O)[C@@H](NC(=O)[C@@H](N)C(C)C)C(C)C)C(C)C)c(C)c1C(=O)OC)c1ccccc1C` (stereo partly drawn) [Compound 87, methyl 5-((2-((S)-2-((S)-2-((S)-2-amino-3-methylbutanamido)-3-methylbutanamido)-3-methylbutanamido)ethyl)carbamoyl)-4-methyl-2-(2-(o-tolyl)butanamido)thiophene-3-carboxylate] as the compound, how does the EC50 read?
A: 30.6 µM

Q: `CCC(C(=O)Nc1sc(C(N)=O)c(C)c1C(=O)OC)c1ccccc1C(F)(F)F` (centres unmarked) [Compound 89, methyl 5-carbamoyl-4-methyl-2-(2-(2-(trifluoromethyl)phenyl)butanamido)thiophene-3-carboxylate] was tested. Which EC50 did it give?
A: 12.5 µM

Q: For `CCC(C(=O)Nc1sc(C(=O)NCCNC(=O)[C@@H](NC(=O)[C@@H](NC(=O)[C@@H](N)C(C)C)C(C)C)C(C)C)c(C)c1C(=O)OC)c1ccccc1C(F)(F)F` (stereo partly drawn) [Compound 91, methyl 5-((2-((S)-2-((S)-2-((S)-2-amino-3-methylbutanamido)-3-methylbutanamido)-3-methylbutanamido)ethyl)carbamoyl)-4-methyl-2-(2-(2-(trifluoromethyl)phenyl)butanamido)thiophene-3-carboxylate], which EC50 is on record?
A: 2.4 µM

Q: With `CCC(C(=O)Nc1sc(C(=O)N[C@@H](C(=O)N[C@@H](C(=O)OC(C)(C)C)C(C)C)C(C)C)c(C)c1C(=O)OC)c1ccc(F)cc1` (stereo partly drawn) [Compound 92, methyl 5-(((R)-1-(((R)-1-(tert-butoxy)-3-methyl-1-oxobutan-2-yl)amino)-3-methyl-1-oxobutan-2-yl)carbamoyl)-2-(2-(4-fluorophenyl)butanamido)-4-methylthiophene-3-carboxylate] as the compound, how does the EC50 read?
A: 35.5 µM

Q: Which EC50 does the source give for `CCC(C(=O)Nc1sc(C(=O)N[C@@H](C(=O)N[C@@H](C(=O)O)C(C)C)C(C)C)c(C)c1C(=O)OC)c1ccc(F)cc1` (stereo partly drawn) [Compound 93, (5-(2-(4-fluorophenyl)butanamido)-4-(methoxycarbonyl)-3-methylthiophene-2-carbonyl)-D-valyl-D-valine] here?
A: 13.6 µM
